Laboratory results: article PMC9365693 (Nature, 2022)

Test: Mobility-edited H(H)C ssNMR: membrane topology of lipid II-bound teixobactin
Details: for Peak integral, Lipid peak / Peak integral, Water peak: integral values from topspin; for Total integral: lipid + water peak; for (%) exposure, Lipid: lipid peak / total integral; for (%) exposure, Lipid / (%) exposure, Water: Extended Data Fig. 8d; for (%) exposure, Water: water peak / total integral; for Integral [abs], I5 L: residue I5, lipid peak; for Integral [abs], I5 W: residue I5, water peak
From the text: T1rho trajectories were fit to single exponentials.
Extended Data Fig. 8 The membrane topology of the complex. a) and b) show mobility-edited (‘T2-filtered’) ^1H(^1H)^13C ssNMR experiments[37] of ^13C,^15N-teixobactin bound to Lipid II. […] For each residue, peak areas were integrated using Topspin 4.06. Signals that were used for the integration are annotated. e) Membrane topology visualized with the ssNMR structure. Hydrophilic (in blue) and hydrophobic (brown) residues are sharply separated above and below the β-sheet, respectively. Note that the N-terminal Phe1 at the rim of the β-sheet has higher water accessibility, potentially because of fraying and mobility effects. f) Normalized contacts to water and lipid-tails, back-calculated over the MD simulation based on our ssNMR structure. g) Membrane topology using a different structure of the calculated ssNMR ensemble. As shown in Extended Data Fig. 9a, the despi-cycle is plastic and can point up towards the water phase, bringing End10 well-above the membrane-plane. Source data

Substance: teixobactin
- Peak integral, Lipid peak (residue En10): 2427300000 abs
- Peak integral, Water peak (residue En10): 10975000000 abs
- Total integral (residue En10): 13402300000 abs
- (%) exposure, Lipid (residue En10): 0.1811%
- (%) exposure, Water (residue En10): 0.8189%
- Peak integral, Lipid peak (residue F1): 6219800000 abs
- Peak integral, Water peak (residue F1): 11286000000 abs
- Total integral (residue F1): 17505800000 abs
- (%) exposure, Water (residue F1): 0.6447%
- Peak integral, Lipid peak (residue I2): 4889800000 abs
- Peak integral, Water peak (residue I2): 2150800000 abs
- Total integral (residue I2): 7040600000 abs
- (%) exposure, Lipid (residue I2): 0.6945%
- (%) exposure, Water (residue I2): 0.3055%
- Peak integral, Water peak (residue I5 (avg)): 6133400000 abs
- Total integral (residue I5 (avg)): 31269600000 abs
- (%) exposure, Lipid (residue I5 (avg)): 0.8039%
- (%) exposure, Water (residue I5 (avg)): 0.1961%
- Integral [abs], I5 L (first listed peak): 14909000000 abs
- Integral [abs], I5 L (second listed peak): 4352100000 abs
- Integral [abs], I5 L (third listed peak): 5875100000 abs
- Integral [abs], I5 W (first listed peak): 2103100000 abs
- Integral [abs], I5 W (second listed peak): 1331800000 abs
- Integral [abs], I5 W (third listed peak): 2698500000 abs
- Peak integral, Lipid peak (residue I6): 3461100000 abs
- Peak integral, Water peak (residue I6): 507120000 abs
- Total integral (residue I6): 3968220000 abs
- (%) exposure, Lipid (residue I6): 0.8722%
- (%) exposure, Water (residue I6): 0.1278%
